Pooled drug test results. Numbers come from NIAID ChemDB, via PubChem.

All rows: tests in culture; agent: Streptococcus pneumoniae; measure: MIC

Conditions beyond the fields shown may differ between rows.

| SMILES | strain | result |
|---|---|---|
| O=C(O)c1cn(C2CC2)c2cc(N3CCNCC3)ccc2c1=O | R6-C11 | 32 µg/mL |
| CC[C@H]1OC(=O)[C@@](C)(F)C(=O)[C@H](C)[C@@H](O[C@@H]2O[C@H](C)C[C@H](N(C)C)[C@H]2O)[C@@]2(C)C[C@@H](C)C(=NC(C)=O)[C@H](C)[C@@H](OC/C(=N\OCc3ccc4nc(N)sc4c3)CO2)[C@]1(C)O | 700906 (erythromycin A-resistant) | 0.13 µg/mL |
| CC[C@H]1OC(=O)[C@H](C)C(=O)[C@H](C)[C@@H](O[C@@H]2O[C@H](C)C[C@H](N(C)C)[C@H]2O)[C@@]2(C)C[C@@H](C)C(=NC(C)=O)[C@H](C)[C@@H](OC/C(=N\Oc3ccc(-c4nccs4)nc3)CO2)[C@]1(C)O | 700906 (erythromycin-resistant-ERM) | <0.06 µg/mL |
| COc1c(N2CCNC(C)C2)c(F)cc2c(=O)c(C(=O)O)cn(C3CC3)c12 | R6 | 0.25 µg/mL |
| CC[C@H]1OC(=O)[C@H](C)C(=O)[C@H](C)[C@@H](O[C@@H]2O[C@H](C)C[C@H](N(C)C)[C@H]2O)[C@](C)(OC)C[C@@H](C)C(=O)[C@H](C)[C@H]2N(CCCCn3cnc(-c4cccnc4)c3)C(=O)O[C@]12C | 49619 (erythromycin-susceptible) | 0.015 µg/mL |
| CCC(=O)N=C1[C@H](C)C[C@@]2(C)OC/C(=C/C=C/c3ccccc3)COC([C@H]1C)[C@](C)(O)[C@@H](CC)OC(=O)[C@H](C)C(=O)[C@H](C)[C@H]2O[C@@H]1O[C@H](C)C[C@H](N(C)C)[C@H]1O | 7701 (erythromycin-resistant-MEF) | 1 µg/mL |
| CC[C@H]1OC(=O)[C@H](C)C(=O)[C@H](C)[C@@H](O[C@@H]2O[C@H](C)C[C@H](N(C)C)[C@H]2O)[C@@]2(C)C[C@@H](C)C(=O)[C@H](C)C(OC/C=C/CO2)[C@]1(C)O | 700906 (erythromycin-resistant-ERM) | 64 µg/mL |
| CC[C@H]1OC(=O)[C@@](C)(F)C(=O)[C@H](C)[C@@H](O[C@@H]2O[C@H](C)C[C@H](N(C)C)[C@H]2O)[C@@]2(C)C[C@@H](C)C(=NC(C)=O)[C@H](C)[C@@H](OC/C(=N\OCc3ccc(N)nc3)CO2)[C@]1(C)O | 49619 (erythromycin A-susceptible) | <0.06 µg/mL |
| CC[C@H]1OC(=O)[C@H](C)C(=O)[C@H](C)[C@@H](O[C@@H]2O[C@H](C)C[C@H](N(C)C)[C@H]2O)[C@@]2(C)C[C@@H](C)C(=NC(C)=O)[C@H](C)[C@@H](OC/C(=N\Oc3ccc(-c4cnccn4)s3)CO2)[C@]1(C)O | 7701 (erythromycin-resistant-MEF) | <0.06 µg/mL |
| CC[C@H]1OC(=O)[C@H](C)C(=O)[C@H](C)[C@@H](O[C@@H]2O[C@H](C)C[C@H](N(C)C)[C@H]2O)[C@@]2(C)C[C@@H](C)C(=NC(C)=O)[C@H](C)C(OC/C(=C\C=C\c3ccc(F)cc3)CO2)[C@]1(C)O | 700906 (erythromycin-resistant-ERM) | 2 µg/mL |
| CC[C@H]1OC(=O)[C@@](C)(F)C(=O)[C@H](C)[C@@H](O[C@@H]2O[C@H](C)C[C@H](N(C)C)[C@H]2O)[C@@]2(C)C[C@@H](C)C(=NC(C)=O)[C@H](C)[C@@H](OC/C(=N\OCc3ccc(C(N)=O)s3)CO2)[C@]1(C)O | 7701 (erythromycin A-resistant) | 0.25 µg/mL |
| CC[C@H]1OC(=O)[C@H](C)C(=O)[C@H](C)[C@@H](O[C@@H]2O[C@H](C)C[C@H](N(C)C)[C@H]2O)[C@@]2(C)C[C@@H](C)C(=NC(C)=O)[C@H](C)C(OC/C(=C\C#Cc3ccc(N)nc3)CO2)[C@]1(C)O | 7701 (erythromycin-resistant-MEF) | 0.13 µg/mL |
| CC[C@H]1OC(=O)[C@H](C)C(=O)[C@H](C)[C@@H](O[C@@H]2O[C@H](C)C[C@H](N(C)C)[C@H]2O)[C@@]2(C)C[C@@H](C)C(=NC(C)=O)[C@H](C)[C@@H](OC/C(=N\OCC#Cc3ccc(N)nc3)CO2)[C@]1(C)O | 700906 (erythromycin-resistant-ERM) | <0.06 µg/mL |
| CC[C@H]1OC(=O)[C@H](C)C(=O)[C@H](C)[C@@H](O[C@@H]2O[C@H](C)C[C@H](N(C)C)[C@H]2O)[C@@]2(C)C[C@@H](C)/C(=N\C(=O)OC)[C@H](C)C(OC/C(=C\C=C\c3ccccc3)CO2)[C@]1(C)O | 700906 (erythromycin-resistant-ERM) | 4 µg/mL |
| NC1CCN(c2ccc3c(=O)c(C(=O)O)cn(C4CC4)c3c2Cl)C1 | R6 | 0.25 µg/mL |
| CC[C@H]1OC(=O)[C@@](C)(F)C(=O)[C@H](C)[C@@H](O[C@@H]2O[C@H](C)C[C@H](N(C)C)[C@H]2O)[C@@]2(C)C[C@@H](C)C(=NC(C)=O)[C@H](C)[C@@H](OC/C(=N\OCc3cccc(C(N)=O)c3)CO2)[C@]1(C)O | 700906 (erythromycin A-resistant) | 1 µg/mL |
| NC1CCN(c2c(F)cc3c(=O)c(C(=O)O)cn(C4CC4)c3c2Cl)C1 | D-1687 | 0.5 µg/mL |
| CC[C@H]1OC(=O)[C@H](C)C(=O)[C@H](C)[C@@H](O[C@@H]2O[C@H](C)C[C@H](N(C)C)[C@H]2O)[C@@]2(C)C[C@@H](C)C(=NC(C)=O)[C@H](C)C(OC/C(=N\OCC#Cc3cccc(N)n3)CO2)[C@]1(C)O | 49619 (erythromycin-susceptible) | <0.06 µg/mL |
| C=C1COC2[C@@H](C)C(=NC(C)=O)[C@H](C)C[C@@](C)(OC1)[C@H](O[C@@H]1O[C@H](C)C[C@H](N(C)C)[C@H]1O)[C@@H](C)C(=O)[C@@H](C)C(=O)O[C@H](CC)[C@@]2(C)O | 49619 (erythromycin-susceptible) | 0.25 µg/mL |

2 of the rows above, restated:

SMILES,strain,result
CC[C@H]1OC(=O)[C@@](C)(F)C(=O)[C@H](C)[C@@H](O[C@@H]2O[C@H](C)C[C@H](N(C)C)[C@H]2O)[C@@]2(C)C[C@@H](C)C(=NC(C)=O)[C@H](C)[C@@H](OC/C(=N\OCc3ccc(N)nc3)CO2)[C@]1(C)O,49619 (erythromycin A-susceptible),<0.06 µg/mL
CC[C@H]1OC(=O)[C@H](C)C(=O)[C@H](C)[C@@H](O[C@@H]2O[C@H](C)C[C@H](N(C)C)[C@H]2O)[C@@]2(C)C[C@@H](C)C(=NC(C)=O)[C@H](C)C(OC/C(=C\C=C\c3ccc(F)cc3)CO2)[C@]1(C)O,700906 (erythromycin-resistant-ERM),2 µg/mL